In assay [1] the target is T1, SARS-CoV-2 S protein (spike protein) (SARS-CoV-2, UniProt P0DTC2 16-1213). In words: ELISA, S proteins on plate. In general terms: An ELISA detects its analyte on a solid surface through an enzyme-linked reagent.
For assay [2], the target named is T1, SARS-CoV-2 S protein (spike protein).

Where two headings read alike, the source gives them in different places.

B1: No. 3 scFv-Fc antibody fragment (scFv, V domains shown)
VH: not shown
VL: ELVMTQSPSSLSASVGDRVTITCQASQDISNYLNWYQQKPGKAPKLLIYDASNLETGVPSRFSGSGSGTDFTFTISSLQPEDIATYYCQQYDNLPITFGQGTRLEIK
For B1, the Binding ability in assay [1] is 1.48 relative to positive control antibody.

B2: No. 197 scFv-Fc antibody fragment (scFv, V domains shown)
VH: QVQLVQSGAEVKKPGSSVKVSCEASGGTFSSYAISWVRQAPGQGLEWMGGIIPILGIANYAQKFQGRVTITADKSTSTAYMELSSLRSEDTAVYYCARVRGYSGYGSTYYFDYWGQGTLVTVSS
VL: ELVLTQPPSVSGAPGQRVTISCTGSSSNIGAGYDVHWYQQFPGTAPKLLIYGNSNRPSGVPDRFSGSKSGTSASLAITGLQAEDEADYYCQSYDSSLSGSIFGGGTKLTVL
Consider B2, for which the Binding ability in assay [2] is 2.09 relative to positive control antibody.

B3: No. 263 scFv-Fc antibody fragment (scFv, V domains shown)
VH: EVQLVESGGGLVQPGRTLRLSCAASGFTFDDYAMHWVRQPPGKGLEWVSGIDWNSGLIGYADAVKGRFTLSRDNAKNSIFLQMNSLRAEDTALYYCVKDMGSTGGYYGMDVWGQGTTVTVSS
VL: ELVLTQPPSVSAAPGQKVTISCSGSSPNIGNNYVSWYQQLPGTAPKLLIYDNNKRPSGIPDRFSGSKSGTSATLGITGLQTGDEADYYCGTWDSSLSAYVFGTGTKLTVL
For the molecule B3, the Binding ability in assay [1] is 1.46 relative to positive control antibody.

B4: No. 212 scFv-Fc antibody fragment (scFv, V domains shown)
VH: EVQLVQSGGGVVRPGRSLRLSCAASGFTFSNFAMHWVRQAPGKGLEWVAVISYDGSNKYYADSVKGRFTISRDNSKNTLYLQMNSLRPEDTAVYYCARGDYYGSGSYYNPSPFFDYWGQGTLVTVSS
VL: not shown
Take B4: the Binding ability in assay [2] was 1.56 relative to positive control antibody.

B5: No. 236 scFv-Fc antibody fragment (scFv, V domains shown)
VH: EVQLLESRGGVVQPGRSLRLSCAASGFTFSTYSMHWVRQAPGKGLEWVAVISYDGSNKYYADSVKGRFTISRDNSKNTLYLQMNSLRAEDTAVYYCARGDYYGSGSYYNPSPFFDYWGQGTLVTVSS
VL: ELVLTQPPSASGTPGQRVTISCSGSSSNIGSNTVNWYQQLPGTAPKLLIYSNNQRPSGVPDRFSGSKSGTSASLAISGLQPEDEADYYCGTWDSNSETWVFGGGTKLTVL
Take B5: the Binding ability in assay [1] was 1.5 relative to positive control antibody.

B6: No. 239 scFv-Fc antibody fragment (scFv, V domains shown)
VH: EVQLVESGGGLVQPGGSLRLSCAASGFTFSNFAMHWVRQAPGKGLEWVAVISYDGSNKYYADSVKGRFTISRDNSKNTLYLQMNSLRAEDTAVYYCARGDYYGSGSYYNPSPFFDYWGQGTLVTVSS
VL: DLVLTQPPSASGTPGQRVTMSCSGSSSNIGSKTVNWYQQLPGTAPKLLIYSNNQRPSGVPDRFSGSKSGTSASLAISGLRSEDEADYYCAAWDDSLSGWVFGGGTQLTVL
In the case of B6, the Binding ability in assay [2] is 1.45 relative to positive control antibody.

B7: No. 249 scFv-Fc antibody fragment (scFv, V domains shown)
VH: not shown
VL: ELELTQPPSVSVAPGKTARITCGGNNIGSKSVHWYQQKPGQAPVLVIYYDSDRPSGIPERFSGSNSGNTATLTISRVEAGDEADYYCQVWDGSSDHYVFGTGTKVTVL
Take B7: the Binding ability in assay [1] was 0.34 relative to positive control antibody.
